The source of these data is PMC4976356, “Structural insight into β-Clamp and its interaction with DNA Ligase in Helicobacter pylori” (Scientific Reports, 2016).

The test system of this data set is Hpβ-clamp. Description: SAXS of β-clamp, ligase and their mixture. Details: species or system Helicobacter pylori. Conditions: Figure S5.

B1: β-clamp: β-clamp from Helicobacter pylori 26695 (protein)
chain: MKISVSKNDLENALRYLQAFLDKKDASSIASHIHLEVIKEKLFLKASDSDIGLKSYIFTQSSDKEGVGTINGKKFLDIISCLKDSNIILETKDDSLAIKQNKSSFKLPMFDADEFPEFPVIDPKVSIEVNAPFLVDAFKKIAPVIEQTSHKRELAGILMQFDQKHQTLSVVGTDTKRLSYTQLEKISIHSTEEDISCILPKRALLEILKLFYENFSFKSDGMLAVIENEMHTFFTKLIDGNYPDYQKILPKEYISSFTLGKEEFKESIKLCSSLSSTIKLTLEKNNALFESLDSEHSETAKTSVEIEKGLDIEKAFHLGVNAKFFLEALNALGTTQFVLRCNEPSSPFLIQESLDEKQSHLNAKISTLMMPITL
modifications: left off: His tag (from the vector pET 28(b) and the Ni Sepharose column), end not stated, state not stated
In the case of B1, the Dmax is 9.8 nM and the “radius of gyration (Rg)” value is 3.87.
